Test results from US20240174728A1 (Shenzhen Turier Biotech Co., Ltd., priority 2021, published 2024).

Assay: general procedure: Fmoc solid-phase peptide synthesis; Rink amide resin; benzotriazole-N,N,N',N'-tetramethyluronium hexafluorophosphate, 1-hydroxybenzotr
Details: whole synthesis, scale 0.25 mol

In the case of “His-Aib-Gln-Gly-Thr-Phe-Thr-Ser-Asp-Lys(PEG2-PEG2-γGlu-CO(CH2)18CO2H)-Ser-Lys-Tyr-Leu-Glu-Aib-Lys-Ala-Ala-Gln-Asp-Phe-Val-Glu-Trp-Leu-Lys-Ala-Gly-Gly-Pro-Ser-Ser-Gly-Ala-Pro-Pro-Pro-Ser-NH2”, the “final HPLC purity” value is reported as greater than 95%.
